Results deposited as PubChem BioAssay AID504761 (Drosophila RNAi Screening Center, 2011).
Test: 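Genome-wide fly cell screen for genes dengue virus requires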 (primary screen). Cells: D.Mel-2 cells from Drosophila. Knock-down reagent: long dsRNA against Drosophila genes. Treatment: infection with dengue virus type 2; dose and infection time not stated. Measured: 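Cells stained for dengue envelope protein and imaged; percent of infected cells per well on duplicate plates, ranked by infection, with stained nuclei counted for cell number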. Reading the numbers: infection score: higher = more virus-infected cells. Active means: 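Very low infection ranking in both replicate wells (chance probability at most 0.065), then a retest showing infection dropped 1.5-fold or more at p below 0.05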. Meaning of the calls: active = confirmed: knock-down lowers infection; inactive = not picked or not confirmed.
The deposit covers about 22,000 reagents; below is a random part of those with a known target gene and a result. Over the whole deposit, 116 (0.52%) are marked active. 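Calls depend on retest data that are not deposited; infection was ranked per plate without normalising between plates; the unit of the infection score is not given.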 The numbers tell different reagents against one gene apart. Not all columns of the deposit are shown. Not given: the amount of reagent, the time to read-out.

With CG15115, what does the deposit list?
infection score, replicate 1: 6.73; Call: inactive

How did the screen score CG32152?
infection score, replicate 1: 2.25; Call: inactive

What is on record for Teh4 (tipE homolog 4)?
infection score, replicate 1: 3.88; Call: inactive

With CG9757 #1, what was measured?
infection score, replicate 1: 2.71; Call: inactive

How did the screen score CG9757 #2?
infection score, replicate 1: 1.92; Call: inactive

What did the screen give for CG9757 #3?
infection score, replicate 1: 11.4; Call: inactive

What is on record for ACXA (Adenylyl cyclase X A) #1?
infection score, replicate 1: 4.46; Call: inactive

What is on record for ACXA (Adenylyl cyclase X A) #2?
infection score, replicate 1: 3.46; Call: inactive

Which result is listed for CG2003?
infection score, replicate 1: 10.1; Call: inactive

With Rbp1 (RNA-binding protein 1), what was measured?
infection score, replicate 1: 26; Call: inactive

For CG14949, what was measured?
infection score, replicate 1: 5.5; Call: inactive

How did the screen score CG5697?
infection score, replicate 1: 4.72; Call: inactive

How did the screen score RpS27 (Ribosomal protein S27) #1?
infection score, replicate 1: 4.31; Call: inactive

For RpS27 (Ribosomal protein S27) #2, what does the deposit list?
infection score, replicate 1: 18.5; Call: inactive

As entered above.
For “Call”, CG14949 shows inactive
Result of RpS27 (Ribosomal protein S27) #1 under “infection score, replicate 1”: 4.31
